{"source": "PubChem BioAssay AID624099 (ICCB-Longwood, 2012)", "test": "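Knock-downs relieving repression by E2 of an HPV18 LCR luciferase reporter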 (primary screen)", "system": "human C33A cervical carcinoma cells (HPV-negative) stably expressing BPV1 E2 and an HPV18 LCR luciferase reporter", "reagents": "siRNA pool against human genes, 40 nM", "timing": "72 h", "measured": "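Per-well luciferase luminescence, z-scored on each plate against the plate mean and SD with control wells left out, then averaged across three replicate plates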", "scale": "mean z-score and z-score: higher = stronger reporter signal, weaker E2 silencing", "active means": "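Hit if mean z-score reaches 2 and two or more of three replicate z-scores also reach 2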", "note": "Shown is one part, drawn at random, of about 21,000 deposited reagents. In the full data, 497 (2.4%) are marked active. 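Higher z means weaker E2 silencing; only reporter increases were scored, and knock-downs that hurt cell survival may mask genuine repressor factors.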 Unmarked entries are inactive."}
{"Target gene": "NR2C2 (nuclear receptor subfamily 2 group C member 2)", "mean z-score": -0.11, "z-score, replicate A": -0.28, "z-score, replicate B": 0.06, "z-score, replicate C": -0.12}
{"Target gene": "WARS1P1 (tryptophanyl-tRNA synthetase 1 pseudogene 1)", "mean z-score": 1, "z-score, replicate A": 1.32, "z-score, replicate B": 0.72, "z-score, replicate C": 0.96}
{"Target gene": "SETD5 (SET domain containing 5)", "mean z-score": "3.25 (active)", "z-score, replicate A": 2.78, "z-score, replicate B": 3.12, "z-score, replicate C": 3.84}
{"Target gene": "UNC93A (unc-93 homolog A)", "mean z-score": -0.9, "z-score, replicate A": -0.62, "z-score, replicate B": -0.77, "z-score, replicate C": -1.3}
{"Target gene": "RPL29 (ribosomal protein L29)", "mean z-score": -0.79, "z-score, replicate A": -0.92, "z-score, replicate B": -0.49, "z-score, replicate C": -0.97}
{"Target gene": "IL18R1 (interleukin 18 receptor 1)", "mean z-score": -0.46, "z-score, replicate A": -0.26, "z-score, replicate B": -0.52, "z-score, replicate C": -0.6}
{"Target gene": "H1-3 (H1.3 linker histone, cluster member)", "mean z-score": -0.16, "z-score, replicate A": -0.29, "z-score, replicate B": -0.3, "z-score, replicate C": 0.12}
{"Target gene": "MIS18BP1 (MIS18 binding protein 1)", "mean z-score": 1.33, "z-score, replicate A": 1.22, "z-score, replicate B": 1.25, "z-score, replicate C": 1.52}
{"Target gene": "TMEM252 (transmembrane protein 252)", "mean z-score": 0.54, "z-score, replicate A": 1.28, "z-score, replicate B": 0.46, "z-score, replicate C": -0.12}
{"Target gene": "CAT (catalase)", "mean z-score": 0.32, "z-score, replicate A": 0.46, "z-score, replicate B": 0.51, "z-score, replicate C": 0}
{"Target gene": "LOC402506 (retired record)", "mean z-score": 0.59, "z-score, replicate A": 0.76, "z-score, replicate B": 0.49, "z-score, replicate C": 0.52}
{"Target gene": "OR4E2 (olfactory receptor family 4 subfamily E member 2)", "mean z-score": 1.71, "z-score, replicate A": 1.56, "z-score, replicate B": 1.37, "z-score, replicate C": 2.2}
{"Target gene": "FOXN1 (forkhead box N1)", "mean z-score": -1.23, "z-score, replicate A": -1.04, "z-score, replicate B": -1.47, "z-score, replicate C": -1.2}
{"Target gene": "JAG2 (jagged canonical Notch ligand 2)", "mean z-score": -0.27, "z-score, replicate A": -0.3, "z-score, replicate B": -0.38, "z-score, replicate C": -0.12}
{"Target gene": "CRABP2 (cellular retinoic acid binding protein 2)", "mean z-score": -0.14, "z-score, replicate A": -0.46, "z-score, replicate B": 0, "z-score, replicate C": 0.04}
{"Target gene": "GOPC (golgi associated PDZ and coiled-coil motif containing)", "mean z-score": -0.24, "z-score, replicate A": -0.51, "z-score, replicate B": -0.07, "z-score, replicate C": -0.14}
{"Target gene": "NANS (N-acetylneuraminate synthase)", "mean z-score": 0.6, "z-score, replicate A": 0.65, "z-score, replicate B": 0.78, "z-score, replicate C": 0.38}
{"Target gene": "SYN2 (synapsin II)", "mean z-score": 0.73, "z-score, replicate A": 0.76, "z-score, replicate B": 0.7, "z-score, replicate C": 0.73}
{"Target gene": "BUD13 (BUD13 spliceosome associated protein)", "mean z-score": 0.03, "z-score, replicate A": -0.07, "z-score, replicate B": 0.27, "z-score, replicate C": -0.13}
{"Target gene": "NRAS (NRAS proto-oncogene, GTPase)", "mean z-score": 0.09, "z-score, replicate A": -0.15, "z-score, replicate B": 0.2, "z-score, replicate C": 0.22}
{"Target gene": "H6PD (hexose-6-phosphate dehydrogenase/glucose 1-dehydrogenase)", "mean z-score": -1.02, "z-score, replicate A": -1.08, "z-score, replicate B": -1.07, "z-score, replicate C": -0.91}

As entered above:
For “mean z-score”, UNC93A (unc-93 homolog A) reads -0.9
JAG2 (jagged canonical Notch ligand 2), z-score, replicate B = -0.38
Result for H6PD (hexose-6-phosphate dehydrogenase/glucose 1-dehydrogenase) in “z-score, replicate A”: -1.08
